Data as given in PubChem BioAssay AID624099 (ICCB-Longwood, 2012)

- Purpose: 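Knock-downs relieving repression by E2 of an HPV18 LCR luciferase reporter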 (primary screen)
- System: human C33A cervical carcinoma cells (HPV-negative) stably expressing BPV1 E2 and an HPV18 LCR luciferase reporter
- Knock-down reagent: siRNA pool against human genes, 40 nM
- Time to read-out: 72 h
- Measurement: 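HPV18 LCR reporter light per well, converted to plate-wise z-scores that exclude control wells, and averaged over triplicate plates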
- Scale: mean z-score and z-score: higher = stronger reporter signal, weaker E2 silencing
- Call rule: 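Hit if mean z-score reaches 2 and two or more of three replicate z-scores also reach 2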
This is a random part of about 21,000 reagents tested. In the full data, 497 (2.4%) got an active call. 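Higher z means weaker E2 silencing; only reporter increases were scored, and knock-downs that hurt cell survival may mask genuine repressor factors.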 Entries without a mark were called inactive. The numbers tell different reagents against one gene apart. Reagent sequences are not shown.

no.	gene	reagent no.	mean z-score	z-score, replicate A	z-score, replicate B	z-score, replicate C
1	SPAG5	1	-1.84	-1.85	-1.91	-1.75
2	FUBP1	1	-1.09	-0.87	-1.53	-0.85
3	PYY	1	0.36	-0.19	0.59	0.68
4	CDC42SE1	1	-1	-0.86	-1.11	-1.03
5	SZT2	1	-0.86	-1.37	-0.6	-0.63
6	SZT2	2	-0.99	-1.01	-1	-0.96
7	SZT2	3	-1.88	-1.79	-2.23	-1.63
8	CCDC25	1	-1.35	-1.44	-1.19	-1.4
9	ARRB1	1	0.74	0.6	1.11	0.52
10	ITPRID2	1	0.57	1.03	0.38	0.31
11	REPS1	1	-0.66	-0.38	-0.91	-0.7
12	CDKL4	1	0.14	-0.04	0.07	0.4
13	XKR4	1	0.02	0.14	-0.34	0.26
14	STYXL2	1	-0.39	-0.57	0	-0.61
15	INTS9	1	-0.67	-0.78	-0.61	-0.64
16	RCBTB1	1	1.24	1.3	1.58	0.84
17	CHRNB4	1	-0.24	-0.3	-0.1	-0.33
18	NYNRIN	1	-0.32	-0.82	-0.29	0.14
19	CTXN1	1	0.06	0.13	-0.05	0.11
20	CRYZL1	1	0.26	0.08	0.39	0.29
21	POLR2I	1	-0.5	-0.43	-0.59	-0.49
22	RNF24	1	-0.14	-0.19	-0.31	0.07
23	TRAM2	1	-0.17	-0.01	-0.14	-0.35
24	RUFY3	1	0.01	-0.13	0.07	0.1
25	CLCN3	1	0.82	0.8	1.01	0.66
26	BAGE2	1	-0.12	-0.52	-0.2	0.35
27	IGHV4OR15-8	1	-0.02	-0.23	0.12	0.05
28	ACTL6B	1	-1.17	-1.05	-1.39	-1.08
29	PGAP4	1	0.82	0.91	1	0.56
30	LOC400571 (retired record)	1	-0.22	-0.08	-0.34	-0.25
31	GABRB1	1	-0.04	-0.19	-0.12	0.2
32	SLC37A4	1	0.7	0.7	0.6	0.81
33	SIGLEC7	1	-0.89	-0.69	-1.1	-0.89
34	S100A2	1	-0.27	-0.2	-0.11	-0.49
35	SOX10	1	1.12	0.94	1.06	1.37
36	BRK1	1	0.7	0.32	0.78	1.01
37	ACRV1	1	0.07	0.21	0.05	-0.06
38	OR2G2	1	0.12	0.57	0.06	-0.29
39	HDAC11	1	-0.7	-0.68	-0.67	-0.75
40	GPX6	1	-0.08	-0.39	0.33	-0.19
41	LRATD2	1	-0.02	0.26	-0.26	-0.05
42	ISG20L2	1	-0.34	-0.42	-0.46	-0.14
43	QPCT	1	0.41	0.27	0.46	0.5
44	KRAS	1	-0.57	-0.64	-0.68	-0.37
45	LIN28B	1	1.14	1.31	1.21	0.9
46	PEX2	1	0.16	0.2	0.27	0.02
47	RNF166	1	-0.54	-0.72	-0.54	-0.36
48	RIF1	1	0.32	0.58	0.36	0.03
49	ZFP37	1	0.63	0.47	0.87	0.56
50	HSPA6	1	0.21	0.51	0.04	0.09
51	C8orf15 (retired record)	1	0.68	0.36	0.93	0.75
52	ABTB3	1	-0.42	-0.52	-0.52	-0.23
53	ELAC2	1	-0.15	-0.54	0.22	-0.12
54	PLA1A	1	2.6 (active)	3.11	2.28	2.4
55	LYLDT1	1	-0.86	-0.57	-0.63	-1.37
56	APOBEC4	1	-0.09	0.19	0.21	-0.66
57	RSPH3	1	-0.17	0.28	-0.52	-0.27
58	TBCE	1	-0.81	-0.19	-1.04	-1.2
59	CPSF4	1	-0.24	-0.14	-0.21	-0.38
60	DEF6	1	0.17	0.01	0.27	0.24
61	C10orf143	1	-1.34	-1.4	-1.21	-1.41
62	ARHGEF35	1	1.05	1.39	1.2	0.57
63	CWC27	1	0.15	0.06	0.42	-0.01
64	IRAK1BP1	1	-0.54	-0.53	-0.74	-0.34
65	RPS2P45	1	-0.51	-0.75	-0.5	-0.28
66	MNMIP1	1	-0.33	-0.09	-0.54	-0.36
67	GLI1	1	-0.34	-0.45	-0.21	-0.36
68	SRL	1	-0.08	-0.44	-0.02	0.23
69	ZC2HC1A	1	-0.12	0	-0.25	-0.11
70	LOC387821 (retired record)	1	-0.53	-0.74	-0.34	-0.5
71	ZNF511	1	0.33	-0.06	0.49	0.56
72	LCE3A	1	0.44	0.42	0.3	0.61
73	CIBAR2	1	0.53	0.51	0.57	0.52
